Pooled drug test results. Numbers come from NIAID ChemDB, via PubChem.

All rows: growth or infection tests; agent: Mycobacterium avium

Conditions beyond the fields shown may differ between rows. A number after MIC or MFC names an inhibition level or a share of isolates. An empty or dashed field is not shown. a–b is a range or a potency band.

smiles	read-out	method	setting	strain or isolate	result
CC[C@@H](CO)NCCN[C@@H](CC)CO	MIC	broth dilution	-	N-444	16 µg/mL
C[C@H](CCC(=O)O)[C@H]1CC[C@H]2[C@@H]3CC[C@@H]4C[C@H](O)CC[C@]4(C)[C@H]3C[C@H](O)[C@]12C	MIC	-	-	-	>2000 µM
O=C(c1ccc([N+](=O)[O-])o1)N1CCc2cc(N3CCN(Cc4ccccc4)CC3)ccc2C1	MIC	-	-	ATCC 25291	25 µg/mL
CCCCCCNC(=O)Nc1ccc(S(=O)(=O)Nc2cc(C)on2)cc1	MIC100	broth dilution / absorbance	14 d	330/88	250 µM
CC[C@H]1OC(=O)[C@H](C)[C@@H](O[C@H]2C[C@@](C)(OC)[C@@H](O)[C@H](C)O2)[C@H](C)[C@@H](O[C@@H]2O[C@H](C)C[C@H](N(C)C)[C@H]2O)[C@](C)(OC)C[C@@H](C)C(=O)[C@H](C)[C@@H](O)[C@]1(C)O	MIC	broth dilution	-	N-444	16 µg/mL
CO[C@H]1/C=C/O[C@@]2(C)Oc3c(C)c(O)c4c(O)c(c(/C=N/N5CCN(C)CC5)c(O)c4c3C2=O)NC(=O)/C(C)=C\C=C\[C@H](C)[C@H](O)[C@@H](C)[C@@H](O)[C@@H](C)[C@H](OC(C)=O)[C@@H]1C	Median MIC	-	-	ATCC 25291	8 µg/mL
CCCCC/C=C\C/C=C\CCCCCCCC(=O)O	MIC	-	-	-	2000 µM
CN[C@@H]1[C@H](O[C@H]2[C@H](O[C@H]3[C@H](O)[C@@H](O)[C@H](N=C(N)N)[C@@H](O)[C@@H]3N=C(N)N)O[C@@H](C)[C@]2(O)C=O)O[C@@H](CO)[C@H](O)[C@H]1O	MIC	-	-	1435	8 µg/mL
CO[C@@H]1C[C@@H](C[C@H]2CC[C@H](C)[C@H]([C@@H](C)C(=O)O)O2)O[C@]2(O[C@](C)([C@H]3CC[C@@](C)([C@@H]4O[C@@H]([C@H]5O[C@@](O)(CO)[C@H](C)C[C@@H]5C)C[C@@H]4C)O3)C[C@H]2C)[C@@H]1C	MIC	resazurin	-	Vet 1387	>20 µg/mL
CC(C)CCC[C@H](C)CC(=O)O	MIC	-	-	-	>2000 µM
CC[C@H]1OC(=O)[C@H](C)[C@@H](O[C@H]2C[C@@](C)(OC)[C@@H](O)[C@H](C)O2)[C@H](C)[C@@H](O[C@@H]2O[C@H](C)C[C@H](N(C)C)[C@H]2O)[C@](C)(OC)C[C@@H](C)C(=O)[C@H](C)[C@@H](O)[C@]1(C)O	MIC	-	-	3090	≤0.5 µg/mL
CCn1cc(C(=O)O)c(=O)c2cc(F)c(N3CCC(CO)C3)c(F)c21	MIC	-	-	1915112	16 µg/mL
CCc1cc(C(N)=S)ccn1	Median MIC	-	-	ATCC 25291	>5 µg/mL
Nc1ccccc1C(=O)Nc1ccc(Cl)c(Cl)c1	MIC	-	-	MY330/88	>62 µM
CO[C@H]1/C=C/O[C@@]2(C)Oc3c(C)c(O)c4c(O)c(c5c(c4c3C2=O)NC2(CCN(CC(C)C)CC2)N=5)=NC(=O)/C(C)=C\C=C\[C@H](C)[C@H](O)[C@@H](C)[C@@H](O)[C@@H](C)[C@H](OC(C)=O)[C@@H]1C	MIC	-	-	Isolate 90-1110	>1 µg/mL
Cc1ccc(-n2c(=O)[nH]c3ccccc3c2=O)cc1	MIC	-	-	MY330/88	>500 µM
O=C(O)c1cn(C2CC2)c2cc(N3CCNCC3)c(F)cc2c1=O	MIC	-	-	-	4 µg/mL
C=C1C2CC[C@H](C=O)C(O)(C=O)[C@@]2(C)CC[C@@H]1C	MIC	-	-	Isolate 733 HIV-positive	>200 µg/mL
CCN1CC(c2ccsc2)NC(C#N)=C1C#N	MIC	broth dilution / visual reading	-	-	12.5 µg/mL
CO[C@H]1/C=C/O[C@@]2(C)Oc3c(C)c(O)c4c(O)c(c(/C=N/N5CCN(C)CC5)c(O)c4c3C2=O)NC(=O)/C(C)=C\C=C\[C@H](C)[C@H](O)[C@@H](C)[C@@H](O)[C@@H](C)[C@H](OC(C)=O)[C@@H]1C	MIC	-	-	3090-C clarithromycin-resistant	2 µg/mL
CCNC(=O)Nc1ccc(S(=O)(=O)Nc2cc(C)on2)cc1	MIC100	broth dilution / absorbance	21 d	330/88	1000 µM
O=C(O)c1cn(C2CC2)c2c(F)c(N3CCS(=O)(=O)CC3)c(F)cc2c1=O	MIC	-	-	1915112	2–4 µg/mL
CCCCCCCCCCC(C)C(=O)O[C@@H]1[C@H](OC)[C@@H]([C@@H](C[C@H]2OC(C(=O)N[C@H]3CCC[C@@H](C)NC3=O)=C[C@H](O)[C@@H]2O)C(N)=O)O[C@H]1n1ccc(=O)[nH]c1=O	MIC	-	-	HIHJ 1605	1 µg/mL
Nc1ccccc1C(=O)Nc1ccc(F)cc1	MIC	-	-	MY330/88	>250 µM
c1cncc(-c2ncc(-c3ccc4c(c3)OCO4)o2)c1	MIC	-	-	Isolate 733 HIV-positive	50 µg/mL
O=C(NCc1ccc(N2CCN(Cc3ccccc3)CC2)cc1)c1ccc([N+](=O)[O-])o1	MIC	-	-	ATCC 25291	200 µg/mL
CCN1C(C#N)=C(C#N)N=C(c2ccccc2)[C@H]1/C=C/c1ccccc1	MIC	broth dilution / visual reading	-	-	12.5 µg/mL
CCN(CC)c1nc2c(s1)c1c(O)c3c(O)c(C)c4c(c32)C(=O)[C@@](C)(O/C=C/[C@H](OC)[C@@H](C)[C@@H](OC(C)=O)[C@H](C)[C@H](O)[C@H](C)[C@@H](O)[C@@H](C)/C=C/C=C(/C)C(=O)N1)O4	MBC	-	-	3350-4	4 µg/mL
CCN1C(C#N)=C(C#N)N=C(c2ccccc2)C1/C=C/c1ccc(-c2ccccc2)cc1	MIC	broth dilution / visual reading	-	-	12.5 µg/mL
COc1cc(O)cc(/C=C/c2cc3ccccc3s2)c1	MIC	broth dilution	-	-	16 µg/mL
CCN1CC(c2ccccc2)=NC(C#N)=C1C#N	MIC	broth dilution / visual reading	-	-	12.5 µg/mL
N[C@@H]1CONC1=O	Mean MIC	-	-	ATCC 25291	37.5 µg/mL
CCN1C(C#N)=C(C#N)N=C(c2cccs2)[C@H]1/C=C/c1ccccc1	MIC	broth dilution / visual reading	-	-	12.5 µg/mL
CN(C)c1ccc(O)c2c1C[C@H]1C[C@H]3[C@H](N(C)C)C(=O)C(C(N)=O)=C(O)[C@@]3(O)C(=O)C1=C2O	Median MIC	-	-	ATCC 25291	32 µg/mL
CC(C)(O)[C@H](O)COc1c2occc2cc2ccc(=O)oc12	MIC	-	-	Isolate 733 HIV-positive	100 µg/mL
CO[C@H]1/C=C/O[C@@]2(C)Oc3c(C)c(O)c4c(O)c(c5c(c4c3C2=O)NC2(CCN(CC(C)C)CC2)N=5)=NC(=O)/C(C)=C\C=C\[C@H](C)[C@H](O)[C@@H](C)[C@@H](O)[C@@H](C)[C@H](OC(C)=O)[C@@H]1C	MIC50	-	-	9 isolates (HIV+)	1 µg/mL
CC(N)C1CCN(c2nc3c(cc2F)c(=O)c(C(=O)O)cn3C2CC2)C1	MIC	-	-	1915112	32 µg/mL
O=c1oc2ccc(Cl)cc2c(=S)n1Cc1ccccc1	MIC	-	21 d	My 88	65 µM
CC[C@H]1OC(=O)[C@H](C)[C@@H](O[C@H]2C[C@@](C)(OC)[C@@H](O)[C@H](C)O2)[C@H](C)[C@@H](O[C@@H]2O[C@H](C)C[C@H](N(C)C)[C@H]2O)[C@](C)(OC)C[C@@H](C)C(=O)[C@H](C)[C@@H](O)[C@]1(C)O	MIC	-	-	A5	0.13 µg/mL
NNC(=O)c1ccncc1	MIC100	broth dilution / absorbance	14 d	330/88	>250 µM
CCCCCCCCOC(=O)O[C@@H]1[C@H](OC)[C@@H]([C@@H](C[C@H]2OC(C(=O)N[C@H]3CCC[C@@H](C)NC3=O)=C[C@H](O)[C@@H]2O)C(N)=O)O[C@H]1n1ccc(=O)[nH]c1=O	MIC	-	-	HIHJ 1605	0.25 µg/mL
CC[C@H]1C[C@H]2C[C@H]3c4[nH]c5ccc(OC)cc5c4CCN(C2)[C@@H]13	MIC	-	-	Isolate 733 HIV-positive	100 µg/mL
O=C(O)c1cn(C2CC2)c2cc(N3CCNCC3)c(F)cc2c1=O	MIC	-	-	1915112	≤4 µg/mL
CNC(=O)Nc1ccc(S(=O)(=O)Nc2cc(C)on2)cc1	MIC100	broth dilution / absorbance	14 d	330/88	62.5 µM
Cc1ccc(NC(=O)c2ccccc2N)cc1C	MIC	-	-	MY330/88	125 µM
CC[C@H]1OC(=O)[C@H](C)[C@@H](O[C@H]2C[C@@](C)(OC)[C@@H](O)[C@H](C)O2)[C@H](C)[C@@H](O[C@@H]2O[C@H](C)C[C@H](N(C)C)[C@H]2O)[C@](C)(OC)C[C@@H](C)C(=O)[C@H](C)[C@@H](O)[C@]1(C)O	MIC50	-	-	9 isolates (HIV+)	4 µg/mL

For reference, 4 entries again:

smiles	read-out	method	setting	strain or isolate	result
CC(N)C1CCN(c2nc3c(cc2F)c(=O)c(C(=O)O)cn3C2CC2)C1	MIC	-	-	1915112	32 µg/mL
CCN(CC)c1nc2c(s1)c1c(O)c3c(O)c(C)c4c(c32)C(=O)[C@@](C)(O/C=C/[C@H](OC)[C@@H](C)[C@@H](OC(C)=O)[C@H](C)[C@H](O)[C@H](C)[C@@H](O)[C@@H](C)/C=C/C=C(/C)C(=O)N1)O4	MBC	-	-	3350-4	4 µg/mL
Cc1ccc(-n2c(=O)[nH]c3ccccc3c2=O)cc1	MIC	-	-	MY330/88	>500 µM
CCn1cc(C(=O)O)c(=O)c2cc(F)c(N3CCC(CO)C3)c(F)c21	MIC	-	-	1915112	16 µg/mL